From article PMC9611977 (Toxins, 2022)

Key:
human α7 nAChR = test: radioligand competition assay with [125I]-αBgt, GH4C1 cells transfected with human α7 nAChR; settings: purified toxin at 40 μM; average of three measurements
[1] = system: muscle-type T. californica nAChR (α1β1γδ); test: radioligand competition assay with [125I]-αBgt, T. californica electric organ membranes; settings: purified toxin at 20 μM; average of three measurements

CC[C@H](C)[C@@H]1NC(=O)[C@H](CCSC)NC(=O)[C@H](Cc2ccccc2)NC(=O)[C@H](Cc2c[nH]c3ccccc23)NC(=O)[C@H](Cc2ccc(O)cc2)NC(=O)[C@H](C(C)C)NC(=O)CNC(=O)[C@H]([C@@H](C)O)NC(=O)[C@H](Cc2ccc(O)cc2)NC(=O)CNC(=O)[C@H](CC(C)C)NC(=O)[C@@H]2CSSC[C@@H]3NC(=O)[C@H](CO)NC(=O)[C@H](CC(C)C)NC(=O)[C@H](CC(N)=O)NC(=O)[C@H](Cc4ccc(O)cc4)NC(=O)CNC(=O)[C@H](Cc4c[nH]cn4)NC(=O)CNC(=O)[C@H](CC(N)=O)NC(=O)[C@@H]4CCCN4C(=O)[C@H](CSSC[C@@H](C(=O)N[C@H](C(=O)N[C@@H](CCCCN)C(=O)N[C@@H](CCCCN)C(=O)O)C(C)C)NC(=O)[C@H](CSSC[C@H](NC(=O)[C@@H]4CCCN4C(=O)[C@@H](NC(=O)CN)[C@@H](C)O)C(=O)N[C@@H](CCCCN)C(=O)N2)NC(=O)[C@H](C(C)C)NC(=O)CNC(=O)[C@H](CC(C)C)NC(=O)[C@H](Cc2ccccc2)NC(=O)[C@H](Cc2ccc(O)cc2)NC(=O)[C@@H]2CCCN2C3=O)NC(=O)[C@H](CCCNC(=N)N)NC(=O)[C@H]([C@@H](C)O)NC1=O [Hmg 1b-5]
inhibition of [125I]-αBgt binding to human α7 nAChR (human α7 nAChR): 38–40%
inhibition of [125I]-αBgt binding to muscle-type T. californica nAChR [1]: 50–55%
